Reference: PubChem BioAssay AID504761 (Drosophila RNAi Screening Center, 2011)
The deposit covers about 22,000 reagents; this is a random part of those with a known target gene and a result. Of all reagents, 116 (0.52%) were called active. 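Calls depend on retest data that are not deposited; infection was ranked per plate without normalising between plates; the unit of the infection score is not given.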 Raw values vary from plate to plate and are shown uncorrected. Unmarked entries are inactive. Names joined by + are all predicted targets of the reagent. Not given: the amount of reagent, the time to read-out.

Purpose: 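Genome-wide fly cell screen for genes dengue virus requires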 (primary screen)
Cell system: D.Mel-2 cells from Drosophila
Knock-down reagent: long dsRNA against Drosophila genes
Challenge: infection with dengue virus type 2; dose and infection time not stated
Measurement: 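Cells stained for dengue envelope protein and imaged; percent of infected cells per well on duplicate plates, ranked by infection, with stained nuclei counted for cell number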
Reading the numbers: infection score: higher = more virus-infected cells; cell count: higher = more cells in the well
Hit rule: 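Very low infection ranking in both replicate wells (chance probability at most 0.065), then a retest showing infection dropped 1.5-fold or more at p below 0.05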
Calls: active = confirmed: knock-down lowers infection; inactive = not picked or not confirmed

| predicted target | dsRNA | infection score, replicate 1 | infection score, replicate 2 | cell count, replicate 1 | cell count, replicate 2 |
| --- | --- | --- | --- | --- | --- |
| Pis | DRSC20178 | 28.8 | 14.6 | 5755 | 2261 |
| Pis | DRSC29976 | 15.5 | 2.1 | 6432 | 6625 |
| mRpL19 | DRSC16367 | 3.77 | 3.5 | 6158 | 6286 |
| mRpL19 | DRSC21618 | 2.29 | 2.39 | 5626 | 6273 |
| mRpL19 | DRSC26104 | 8.1 | 3.39 | 3629 | 5193 |
| CG31183 | DRSC14403 | 12.3 | 5.69 | 5445 | 6692 |
| CG31183 | DRSC15554 | 7.3 | 6.65 | 6383 | 6584 |
| RpS7 | DRSC15394 | 2.78 | 3.19 | 1476 | 1128 |
| RpS7 | DRSC28468 | 10.9 | 19.5 | 1079 | 1786 |
| CG13186 | DRSC06311 | 18.6 | 14.8 | 3549 | 7304 |
| Srx | DRSC20005 | 8.27 | 2.38 | 5914 | 7064 |
| svr | DRSC17293 | 3.94 | 2.91 | 6316 | 5604 |
| svr | DRSC18841 | 1.14 | 13.1 | 6750 | 5810 |
| svr | DRSC27397 | 20.3 | 7.34 | 6414 | 6352 |
| Nek2 | DRSC18124 | 1.28 | 0.63 | 6425 | 6842 |
| Nek2 | DRSC26714 | 0.59 | 8.53 | 6927 | 5841 |
| MED19 | DRSC10516 | 10.6 | 25.3 | 5616 | 5402 |
| MED19 | DRSC23458 | 1.58 | 9.74 | 6474 | 5914 |
| CG15056 | DRSC19630 | 17.2 | 3.36 | 5588 | 6005 |
| spirit | DRSC18202 | 8.37 | 6.28 | 6476 | 6511 |
| spirit | DRSC25748 | 11.3 | 6.62 | 6086 | 5561 |
| mei-S332 | DRSC04704 | 13.7 | 28 | 5719 | 4988 |
| CG8728 | DRSC07251 | 25.6 | 14.9 | 4528 | 4917 |
| Ance-4 | DRSC07104 | 7.26 | 14.4 | 5826 | 5371 |
| CG13070 | DRSC09953 | 3.13 | 0.17 | 5564 | 6384 |
| bab2 | DRSC08150 | 2.34 | 1.67 | 5721 | 6339 |
| bab2 | DRSC26326 | 7.1 | 13.6 | 4915 | 6512 |
| Prx1 | DRSC10741 | 1.44 | 6.37 | 6735 | 6417 |
| Prx1 | DRSC24401 | 4.74 | 1.12 | 6097 | 6156 |

9 entries from above, reduced to “infection score, replicate 1”.
Nek2 [DRSC18124]: 1.28
Nek2 [DRSC26714]: 0.59
MED19 [DRSC10516]: 10.6
MED19 [DRSC23458]: 1.58
CG15056 [DRSC19630]: 17.2
spirit [DRSC18202]: 8.37
spirit [DRSC25748]: 11.3
mei-S332 [DRSC04704]: 13.7
CG8728 [DRSC07251]: 25.6

The listing continues:
| predicted target | dsRNA | infection score, replicate 1 | infection score, replicate 2 | cell count, replicate 1 | cell count, replicate 2 |
| --- | --- | --- | --- | --- | --- |
| Dysb | DRSC10730 | 12.1 | 7.81 | 6686 | 6301 |
| CG6071 | DRSC10579 | 1.72 | 3.66 | 6032 | 5990 |
| dlg1 | DRSC18896 | 4.5 | 1.87 | 6071 | 6519 |
| dlg1 | DRSC19767 | 1.78 | 1.73 | 6591 | 6662 |
| dlg1 | DRSC20324 | 1.44 | 5.66 | 6385 | 6021 |
| dlg1 | DRSC29546 | – | 8.46 | 305 | 6123 |
| Slimp | DRSC13656 | 2.34 | 2.66 | 6056 | 5679 |
| Usp47 | DRSC11313 | 10.4 | 16.1 | 2511 | 5109 |
| Atg10 + CG12822 | DRSC06796 | 15.9 | 8.24 | 5479 | 1481 |
| CG18368 | DRSC06731 | 25.4 | 25.4 | 6367 | 5457 |
| mwh | DRSC08382 | 2.72 | 0.6 | 5845 | 6161 |
| mwh | DRSC27439 | 7.32 | 4.91 | 6913 | 6481 |
| CG16781 | DRSC18117 | 1.67 | 3.75 | 6754 | 6689 |
| CG16781 | DRSC28112 | 16.1 | 22.3 | 5108 | 3292 |
| CG34277 + CG31542 | DRSC21544 | 1.79 | 3.54 | 6377 | 6664 |
| CG34277 + CG31542 | DRSC25567 | 3.47 | 2.04 | 5528 | 5001 |
| CG7387 | DRSC10833 | 8.3 | 10.6 | 5274 | 3819 |
| CG18190 | DRSC06714 | 2.7 | 4.18 | 6190 | 6050 |
| CG18190 | DRSC27920 | 14 | 24.4 | 5731 | 5606 |
| Or88a | DRSC16770 | 1.8 | 6.76 | 6117 | 6875 |
| E(var)3-9 | DRSC23242 | 5.32 | 2.61 | 6766 | 7245 |
| E(var)3-9 | DRSC29480 | 6.78 | 22.7 | 1446 | 5183 |
| Ndc1 | DRSC15895 | 12.6 | 10.6 | 4667 | 5012 |
| CG8252 | DRSC07126 | 4.97 | 4.17 | 6435 | 6784 |
| CG8252 | DRSC29694 | 21.4 | 13.9 | 5901 | 5719 |
| msd5 | DRSC08560 | 3.18 | 1.54 | 5310 | 5987 |
| msd5 | DRSC26406 | 1.17 | 3.71 | 6233 | 6386 |
| Gr94a | DRSC13597 | 6.33 | 6.14 | 6509 | 5925 |
| Ctu1 | DRSC07069 | 3.69 | 15 | 6446 | 6023 |
